A mixed list of measured activities; the numbers were collected in NIAID ChemDB.

Common to all: growth or infection tests; species: Mycobacterium tuberculosis

ECn is the concentration giving n% inhibition of infection, replication or growth. Inhibition is in % at the dose shown (toxicity tests: loss of growth or viability). Neighbouring rows are from separate reports. An empty or dashed field is not shown. MIC bound comes from a single tested concentration. A number after MIC or MFC names an inhibition level or a share of isolates. a–b is a range or a potency band.

structure,method,mutations,tested at,read-out,strain,cells,result
N#Cc1c(-c2ccccc2)nc2sc(-c3ccco3)nn12,BACTEC,-,6.25 µg/mL,inhibition,H37Rv,-,<90%
CN1CCN(Cc2ccc(NC/C=C/c3ccccc3)cc2)CC1,-,-,-,MIC,6431,-,>64 µg/mL
Cc1csc(N=Nc2ccc(N(C)C)cc2)[n+]1[O-],resazurin,-,6.25 µg/mL,inhibition,H37Rv,-,103%
COc1ccc2c(=O)c(-c3c(-c4ccccc4)oc4cc(OC)ccc4c3=O)c(-c3ccccc3)oc2c1,-,-,12.5 µg/mL,inhibition,-,-,0%
CCCCS/C(N)=N\N=C\c1ccnnc1,-,-,-,MIC,ATCC 35822 (isoniazid-resistant),-,12.5 µg/mL
O=[N+]([O-])c1ccc(N2CCN(Cc3ccccc3)CC2)c2c1no[n+]2[O-],resazurin,-,6.25 µg/mL,inhibition,H37Rv,-,100%
C(=C\c1ccccc1)/CNc1ccccc1Cn1ccnc1,-,-,-,MIC,6431,-,4 µg/mL
Cc1cc(C)c2cc(C(=O)N[C@H]3CC[Si](C)(C)C3)[nH]c2c1,resazurin,-,-,MIC90,H37Rv,-,0.052 µg/mL
CC(=O)Oc1ccc([C@@H]2CC(=O)c3c(cc(OC(C)=O)c(-c4c(OC(C)=O)cc(OC(C)=O)c5c4O[C@H](c4ccc(OC(C)=O)cc4)CC5=O)c3OC(C)=O)O2)cc1,-,-,-,EC50,H37Rv,-,>12.5 µg/mL
CCN1OCC(N)C1=O,-,-,-,MIC,-,-,>2500 µM
S=C(S)N1CCC(CC2CCN(C(=S)S)CC2)CC1,BACTEC,-,-,MIC,H37Rv,-,≥12.5 µg/mL
CCCCCCCCCCS(=O)CC(N)=O,-,-,-,MIC,H37Rv,-,>50 µg/mL
O=C(NC1CONC1=O)c1cccc(C(F)(F)F)c1,-,-,-,MIC,12PI,-,50 µg/mL
CCOC(=O)c1ccc(NC(=O)C2(c3cccs3)CCOCC2)cc1,turbidity,-,-,EC50,CDC1551,-,200 µM
N#Cc1ccc(Nc2nc(Oc3cccc4cccnc34)nc(N3CCN(c4cccc(Cl)c4)CC3)n2)cc1C(F)(F)F,agar,-,-,MIC98,H37Rv,-,25 µg/mL
CN(C)c1ccc(/C=C/C(=O)c2ccncc2)cc1,-,-,-,EC50,H37Rv,-,>12.5 µg/mL
O/N=C/c1c(-c2ccccc2)nc2sc(-c3ccco3)nn12,BACTEC,-,6.25 µg/mL,inhibition,H37Rv,-,<90%
CC(=O)OC(C)C(O)C(O)C(/C=C/C1CC=CC(=O)O1)OC(C)=O,BACTEC,-,-,MIC bound,H37Rv,-,>12.5 µg/mL
NC(=O)CN1OCC(N)C1=O,-,-,-,MIC,-,-,>2500 µM
Cc1ccc(C(=S)CCC(=O)NC[C@H]2CN(c3ccc(N4CCOCC4)c(F)c3)C(=O)O2)cc1,-,-,-,MIC,ATCC 27294,-,>16 µg/mL
CC1CN=C(N(C(=O)Nc2ccccc2)c2ccc(Cl)c(Cl)c2)S1,resazurin,-,6.25 µg/mL,inhibition,H37Rv,-,18%
OCc1c(-c2ccc(Br)cc2)nc2sc(-c3cccs3)nn12,BACTEC,-,6.25 µg/mL,inhibition,H37Rv,-,<90%
CC(C)Cc1ccc(C(=O)CCC(=O)NC[C@H]2CN(c3ccc(-n4cncn4)c(F)c3)C(=O)O2)cc1,-,-,-,MIC,10 clinical isolates sensitive,-,2–4 µg/mL
CCSc1ccc(C(N)=S)cc1,-,-,-,MIC,H37Rv,-,254 µM
CSC(=S)NN=C1CCCCC1,-,-,-,MIC,KM-R,-,6.4 µg/mL
N#Cc1ccc(Nc2nc(Oc3cccc4cccnc34)nc(N3CCN(c4ccccc4F)CC3)n2)cc1C(F)(F)F,BACTEC,-,-,MIC,H37Rv,-,>6.25 µg/mL
NNC(=O)c1ccncc1,resazurin,Extensively drug-resistant,-,MIC,XZ06008,-,>256 µg/mL
COc1ccc(-c2cc(=O)c3c(OC)cc(OC)c([C@H]4C(=O)c5c(OC)cc(OC)cc5O[C@@H]4c4ccc(OC)cc4)c3o2)cc1,-,-,-,EC50,H37Rv,-,<12.5 µg/mL
CS/C(N)=N\N=C\c1cccnc1,-,-,-,MIC,ATCC 35822 (isoniazid-resistant),-,>100 µg/mL
CCc1ccc(NC(=O)C2(c3cccs3)CCOCC2)cc1,turbidity,-,-,MIC99,CDC1551,-,342 µM
CO[C@H]1/C=C/O[C@@]2(C)Oc3c(C)c(O)c4c(O)c(c(/C=N/N5CCN(C)CC5)c(O)c4c3C2=O)NC(=O)/C(C)=C\C=C\[C@H](C)[C@H](O)[C@@H](C)[C@@H](O)[C@@H](C)[C@H](OC(C)=O)[C@@H]1C,-,-,-,MIC,TN801,-,2 µg/mL
CCCCCCCCS(=O)CC(=O)OCc1ccccc1,-,-,-,MIC,H37Rv,-,>25 µg/mL
Brc1ccc(-c2nc3sc(C4CCCCC4)nn3c2CN2CCCCC2)cc1,BACTEC,-,6.25 µg/mL,inhibition,H37Rv,-,<90%
CC(C)c1ccc(NC(=O)C2(c3cccs3)CCOCC2)cc1,turbidity,-,-,MIC99,CDC1551,-,290 µM
c1ccc(-c2nc3sc(C4CCCCC4)nn3c2CC2CCOCC2)cc1,BACTEC,-,6.25 µg/mL,inhibition,H37Rv,-,<90%
CCOc1ccc(NC(=O)C2(c3cccs3)CCOCC2)cc1,turbidity,-,-,EC50,CDC1551,-,81 µM
OCc1c(-c2ccc(Br)cc2)nc2sc(-c3ccco3)nn12,BACTEC,-,6.25 µg/mL,inhibition,H37Rv,-,<90%
CNC(=S)c1ccc(SC(C)C)cc1,-,-,-,MIC,H37Rv,-,>355 µM
O=C1C2C3CCC(O3)C2C(=O)N1c1ccccn1,BACTEC,-,-,MIC bound,H37Rv,-,>12.5 µg/mL
O=C(Nc1cncc(Cl)n1)c1ccccc1O,resazurin,-,-,MIC,H37Rv,-,>100 µg/mL
O=Cc1c(-c2ccc(Br)cc2)nc2sc(-c3ccco3)nn12,BACTEC,-,6.25 µg/mL,inhibition,H37Rv,-,<90%
c1ccc(Nc2nc(N/N=C3\CN4CCC3CC4)nc(N3CCCCC3)n2)cc1,MTT,-,-,MIC,H37Ra,-,0.1 µg/mL
CCOC(=O)c1noc(/C=C/c2ccccc2)c1C(=O)c1ccccc1,resazurin,-,-,MIC,ATCC 27294,-,58.2 µM
O=[N+]([O-])c1ccc(N/N=C/C2C=C(CO)OC=C2O)nc1,BACTEC,-,-,MIC,H37Rv,-,≥12.5 µg/mL
CO[C@H]1/C=C/O[C@@]2(C)Oc3c(C)c(O)c4c(O)c(c(/C=N/N5CCN(C6CCCC6)CC5)c(O)c4c3C2=O)NC(=O)/C(C)=C\C=C\[C@H](C)[C@H](O)[C@@H](C)[C@@H](O)[C@@H](C)[C@H](OC(C)=O)[C@@H]1C,-,-,-,MIC,Atencio,-,0.03 µg/mL
C=CCSc1ccc(/C=C/C(N)=S)cc1,-,-,-,MIC,H37Rv,-,63 µM
CN1OCC(N)C1=O,-,-,-,MIC,-,-,>2500 µM
O=C(CCC(=O)c1ccccc1)NC[C@H]1CN(c2ccc(-n3cncn3)c(F)c2)C(=O)O1,-,-,-,MIC,ATCC 27294,-,1 µg/mL
COCN1OCC(N)C1=O,-,-,-,MIC,-,-,3000 µM
O=C(/C=C/C(=O)c1ccccc1)NC[C@H]1CN(c2ccc(N3CCCCC3)c(F)c2)C(=O)O1,-,-,-,MIC,10 clinical isolates sensitive,-,>16 µg/mL
CCCCCCCSc1ccc(C(=S)NCC)cc1,-,-,-,MIC,H37Rv,-,>274 µM
O=C(NC1CONC1=O)c1ccc(F)cc1,-,-,-,MIC,H37Rv,-,50 µg/mL
Cc1c(Cl)cccc1NC(=O)N/N=C/c1ccccc1[N+](=O)[O-],-,-,-,EC50,-,-,>6.25 µg/mL
C(=C\c1ccccc1)/CNc1ccc(CN2CCOCC2)cc1,-,-,-,MIC,103471,-,>64 µg/mL
CCOc1cc(O)c(C(=O)/C=C/c2ccccc2)c(OCC)c1,-,-,-,EC50,-,-,>12.5 µg/mL
COC(=O)Nc1cn2ccc(Sc3ccccc3)cc2n1,BACTEC,-,-,MIC bound,H37Rv,-,>12.5 µg/mL
CCCCCCCSc1ccc(/C=C/C(N)=S)cc1,-,-,-,MIC,H37Rv,-,134 µM
O=CN1CCN(c2ccc([N+](=O)[O-])c3no[n+]([O-])c23)CC1,resazurin,-,-,MIC bound,H37Rv,-,>6.25 µg/mL
CSCN1OCC(N)C1=O,-,-,-,MIC,-,-,>2500 µM
c1ccc2c(c1)ncc1cc3c(cc12)[nH]c1ccccc13,resazurin,-,6.25 µg/mL,inhibition,H37Rv,-,88%
COc1ccc(C2CC(=O)c3cc(F)ccc3O2)cc1,-,-,12.5 µg/mL,inhibition,H37Rv,-,0%
NC1CON(CCOCc2ccccc2)C1=O,-,-,-,MIC,-,-,>2500 µM
CCOC(=O)NC(=O)c1cn(CC(=O)NCC(=O)NCC(=O)N2CCN(CCn3c(C)nc(C(N)=O)c3N)CC2)c(=O)[nH]c1=O,BACTEC,-,-,MIC bound,H37Rv,-,>12.5 µg/mL
CCCCCCCCS(=O)(=O)CC(=O)O,-,-,-,MIC,H37Rv,-,12.5 µg/mL
O=Cc1c(-c2ccc(Br)cc2)nc2sc(C3CCCCC3)nn12,BACTEC,-,6.25 µg/mL,inhibition,H37Rv,-,<90%
CCOC(=O)Cn1/c(=N/N=C(\C)c2ccc([N+](=O)[O-])o2)sc2cc(Cl)ccc21,BACTEC,-,12.5 µg/mL,inhibition,H37Rv,-,-2%
CC(=O)Nc1ccc(NC(=O)N/N=C/c2ccccc2O)cc1,-,-,-,EC50,-,-,>6.25 µg/mL
Nc1ccccc1/C=C/C(=O)c1cc(Br)ccc1O,-,-,-,EC50,H37Rv,-,>12.5 µg/mL
COc1ccc(C2OC(=O)c3ncccc32)cc1,BACTEC,-,-,MIC bound,H37Rv,-,>12.5 µg/mL
N#Cc1ccc(Nc2nc(Oc3cccc4cccnc34)nc(N3CCN(c4ccc(F)cc4)CC3)n2)cc1C(F)(F)F,BACTEC,-,-,MIC,H37Rv,-,>6.25 µg/mL
NC(=S)NNC(=O)/C(=C/c1ccc(/C=C(\NC(=O)c2ccccc2)C(=O)NNC(N)=S)cc1)NC(=O)c1ccccc1,-,-,-,MIC,H37Rv,VERO,0.2 µg/mL
COc1c(N2CCc3ccccc3C2C(=O)NC(C)(C)C)c(F)cc2c(=O)c(C(=O)O)cn(C3CC3)c12,-,-,-,MIC,H37Rv (MTB),-,13.31 µM
Brc1ccc(-c2nc3sc(-c4ccco4)nn3c2CN2CCCC2)cc1,BACTEC,-,6.25 µg/mL,inhibition,H37Rv,-,<90%
CC(=O)Nc1ccc(NC(=O)N/N=C/c2ccc(N(C)C)cc2)cc1,-,-,-,EC50,-,-,>6.25 µg/mL
Nc1ccc2nc3ccc(N)cc3[n+](-c3ccccc3)c2c1,BACTEC,-,12.5 µg/mL,inhibition,H37Rv,-,99%
CCC(C)Sc1ccc(/C=C/C(N)=S)cc1,-,-,-,MIC,H37Rv,-,80 µM
O=C(NC1CONC1=O)c1ccccc1C(F)(F)F,-,-,-,MIC,H37Rv,-,50 µg/mL
NC[C@H]1O[C@H](O[C@H]2[C@H](O)[C@@H](O[C@H]3O[C@H](CO)[C@@H](O)[C@H](N)[C@H]3O)[C@H](N)C[C@@H]2N)[C@H](O)[C@@H](O)[C@@H]1O,-,-,-,MIC,A62,-,20 µg/mL
O=[n+]1c2ccccc2n([O-])c2ccccc21.[Cl][Cu][Cl],-,-,-,MIC,KM-R,-,1.6 µg/mL
CC(CC[Si](C)(C)C)NC(=O)c1cc2c(Cl)cc(Cl)cc2[nH]1,resazurin,-,-,MIC87,H37Rv,-,1 µg/mL
NC(=O)CS(=O)(=O)CCCCCc1ccccc1,-,-,-,MIC,H37Rv,-,>25 µg/mL
Cc1ccc2nc3c(C)cc(=O)cc-3sc2c1,resazurin,-,-,MIC,H37Rv,-,3.13 µg/mL
CC1COc2c(N3CCN(C)CC3)c(F)cc3c(=O)c(C(=O)O)cn1c23,BACTEC,-,-,MIC,SMI 21,-,0.5 µg/mL
Nc1ccc(C(=O)/C=C/c2ccccc2)cc1,-,-,-,EC50,H37Rv,-,>12.5 µg/mL
NC(=O)C1(N2CCCCC2)CCNCC1,resazurin,-,6.25 µg/mL,inhibition,H37Rv,-,-5%
N#Cc1ccc(Nc2nc(Oc3cccc4cccnc34)nc(N3CCN(C(c4ccccc4)c4ccccc4)CC3)n2)cc1C(F)(F)F,BACTEC,-,-,MIC,H37Rv,-,>6.25 µg/mL
Cc1c2ccnc(-c3ccc(F)cc3)c2cc2c1[nH]c1ccccc12,resazurin,-,-,MIC bound,H37Rv,-,<6.25 µg/mL
CCC1CN(c2c(F)cc3c(=O)c(C(=O)O)cn(C4CC4)c3c2OC)CCN1,-,-,-,MIC,Isolate TN7811,-,0.1 µg/mL

6 of the rows above, restated:

structure	method	mutations	tested at	read-out	strain	cells	result
Nc1ccccc1/C=C/C(=O)c1cc(Br)ccc1O	-	-	-	EC50	H37Rv	-	>12.5 µg/mL
NC(=O)C1(N2CCCCC2)CCNCC1	resazurin	-	6.25 µg/mL	inhibition	H37Rv	-	-5%
O=Cc1c(-c2ccc(Br)cc2)nc2sc(-c3ccco3)nn12	BACTEC	-	6.25 µg/mL	inhibition	H37Rv	-	<90%
CCCCCCCSc1ccc(C(=S)NCC)cc1	-	-	-	MIC	H37Rv	-	>274 µM
O=CN1CCN(c2ccc([N+](=O)[O-])c3no[n+]([O-])c23)CC1	resazurin	-	-	MIC bound	H37Rv	-	>6.25 µg/mL
CC1COc2c(N3CCN(C)CC3)c(F)cc3c(=O)c(C(=O)O)cn1c23	BACTEC	-	-	MIC	SMI 21	-	0.5 µg/mL